Anti-infective test results gathered from many reports (values: NIAID ChemDB through PubChem).

Common to all: tests in culture

ECn is the concentration giving n% inhibition of infection, replication or growth. Fold resistance has wild type as its base. Neighbouring rows are from separate reports. Blank or dashed fields: not listed here. a–b is a range or a potency band.

| structure | read-out | read by | mutations | cell line | organism | strain or isolate | result |
|---|---|---|---|---|---|---|---|
| O=C1NCCCn2c1c1n(c2=O)CCN(C(=O)Nc2cccc(Br)c2)C1 | EC50 | PCR | - | HepG2.2.15 | Hepatitis B virus | - | >5 µM |
| CC1CCC(C(=O)N(c2cc(C#CC(C)(C)C)sc2C(=O)O)C2CCC(O)CC2)CC1 | fold resistance | luciferase | I482L | Huh7 | Hepatitis C virus | H77 (GT1a) | 34.2 |
| CC(C)Cc1cnn2c3c(c(=O)n(-c4ccc5c(c4)nnn5C)c12)C[C@@H](C)N(C(=O)c1ccc(Br)c(C(F)(F)F)c1)C3 | EC50 | luminescence | - | HepG2.117 | Hepatitis B virus | - | ≤0.05 µM |
| CC1(C)CC(=O)C2=C(C1)Nc1c(O)cccc1N(C(=O)CCC(=O)O)C2c1ccc(OCc2ccccc2)cc1Cl | EC50 | luciferase / reporter gene / replicon | - | - | Hepatitis C virus | 1b | 25.59 µM |
| COC(=O)c1cccc(CNC(=O)c2c3n(c(=O)n2-c2ccc(OC)cc2)CCN(C(=O)c2ccc(Br)c(Cl)c2)C3)c1 | EC50 | PCR | - | HepG2.117 | Hepatitis B virus | - | 0.1–0.5 µM |
| COC(=O)N[C@H](C(=O)N1CCC[C@H]1c1ncc(-c2ccc(-c3ccc(-c4cnc([C@@H]5CCCN5C(=O)[C@@H](NC(=O)OC)C(C)C)[nH]4)cc3)cc2)[nH]1)C(C)C | EC50 | luciferase | L31M | Lunet | Hepatitis C virus | 1a | 0.0036 µM |
| COc1ccc(CNC(=O)C2C3CN(C(=O)c4ccc(Br)c(Cl)c4)CCN3CN2c2ccc(C#N)cc2)c(C)c1 | EC50 | PCR | - | HepG2.117 | Hepatitis B virus | - | 0.5–5 µM |
| Cc1ccc(O)c2c1N(C(=O)c1cnccn1)C(c1ccc(OCc3ccccc3)cc1F)C1=C(CC(C)(C)CC1=O)N2 | EC50 | luciferase / reporter gene / replicon | - | - | Hepatitis C virus | 1b | 4.38 µM |
| Cc1nnnn1-c1ccc(-n2c(=O)c3c(n4ncc(Cc5ccccc5)c24)CN(C(=O)c2ccc(Br)c(C(F)(F)F)c2)[C@@H](C)C3)cc1 | EC50 | luminescence | - | HepG2.117 | Hepatitis B virus | - | 0.05–0.5 µM |
| CC(=O)N1c2cccc(O)c2NC2=C(C(=O)CC(C)(C)C2)C1c1ccc(C(F)(F)F)cc1C(F)(F)F | EC50 | luciferase / reporter gene / replicon | - | - | Hepatitis C virus | 1b | 7.36 µM |
| CC(C)Oc1ccc(-n2c(C(=O)NCc3ccc(C(=O)O)cc3)c3n(c2=O)CCN(C(=O)c2ccc(Br)c(Cl)c2)C3)cc1 | EC50 | PCR | - | HepG2.117 | Hepatitis B virus | - | >5 µM |
| CC(=O)N1c2cccc(O)c2NC2=C(C(=O)CC(C)(C)C2)C1c1ccsc1 | EC50 | luciferase / reporter gene / replicon | - | - | Hepatitis C virus | 1b | 1.77 µM |
| O=C(c1ccc(Br)c(Cl)c1)N1CCn2c(c3n(c2=O)C[C@@H](F)CN(Cc2ccccc2)C3=O)C1 | EC50 | PCR | - | HepG2.117 | Hepatitis B virus | - | 0.1–0.5 µM |
| CC1(C)CC(=O)C2=C(C1)Nc1c(O)cccc1N(C(=O)c1ccccn1)C2c1ccc(OCc2ccccc2)cc1Cl | EC50 | luciferase / reporter gene / replicon | - | - | Hepatitis C virus | 1b | 0.95 µM |
| C[C@@H]1Cc2c(n3ncc(Cc4ccccc4)c3n(-c3ccc(-n4ccc(C(F)(F)F)n4)cc3)c2=O)CN1C(=O)c1ccc(Br)c(C(F)(F)F)c1 | EC50 | luminescence | - | HepG2.117 | Hepatitis B virus | - | 0.05–0.5 µM |
| CC(C)C(=O)N1c2cccc(O)c2NC2=C(C(=O)CC(C)(C)C2)C1/C=C/c1ccccc1[N+](=O)[O-] | EC50 | luciferase / reporter gene / replicon | - | - | Hepatitis C virus | 1b | 25.64 µM |
| C[C@H](NC(=O)c1c2n(c(=O)n1-c1ccc(OC3CC3)cc1)CCN(C(=O)c1ccc(Br)c(Cl)c1)C2)c1ccc(OCC#N)cc1F | EC50 | PCR | - | HepG2.117 | Hepatitis B virus | - | 0.1–0.5 µM |
| CCC[C@@H]1Cc2c(n3ncc(Cc4ccccc4)c3n(-c3ccc4c(NC)n[nH]c4c3)c2=O)CN1C(=O)c1ccc(Br)c(C(F)(F)F)c1 | EC50 | luminescence | - | HepG2.117 | Hepatitis B virus | - | ≤0.05 µM |
| Cc1oc(-c2ccccc2)nc1C(=O)N1c2cccc(O)c2NC2=C(C(=O)CC(C)(C)C2)C1c1ccc(OCc2ccccc2)cc1F | EC50 | luciferase / reporter gene / replicon | - | - | Hepatitis C virus | 1b | 0.32 µM |
| CC(C)Cc1cnn2c3c(c(=O)n(-c4ccc5c(c4)nnn5CCO)c12)C[C@@H](C)N(C(=O)c1ccc(Br)c(C(F)(F)F)c1)C3 | EC50 | luminescence | - | HepG2.117 | Hepatitis B virus | - | ≤0.05 µM |
| COc1ccc(CNC(=O)c2c3n(c(=O)n2-c2ccc(OCC(F)(F)F)cc2)CCN(C(=O)c2ccc(Br)c(Cl)c2)C3)c(OC(F)F)c1 | EC50 | PCR | - | HepG2.117 | Hepatitis B virus | - | 0.1–0.5 µM |
| CNC(=O)c1cc(-n2c(=O)c3c(n4ncc(CC(C)C)c24)CN(C(=O)c2ccc(Br)c(C(F)(F)F)c2)[C@@H](C)C3)nn1C | EC50 | luminescence | - | HepG2.117 | Hepatitis B virus | - | ≤0.05 µM |
| CC(C)Oc1ccc(-n2c(C(=O)NCc3ccccc3)c3n(c2=O)CCN(C(=O)c2ccc(Br)nc2)C3)cc1 | EC50 | PCR | - | HepG2.117 | Hepatitis B virus | - | >5 µM |
| CC1(C)CC(=O)C2=C(C1)Nc1c(O)cccc1NC2c1ccc(OCc2ccccc2)c(F)c1 | EC50 | luciferase / reporter gene / replicon | - | - | Hepatitis C virus | 1b | 2.5 µM |
| CNc1n[nH]c2cc(-n3c(=O)c4c(n5ncc(Cc6ccccc6)c35)CN(C(=O)c3ccc(Br)c(C(F)(F)F)c3)[C@@H](C)C4)ccc12 | EC50 | luminescence | - | HepG2.117 | Hepatitis B virus | - | ≤0.05 µM |

Repeating the final 2 entries:

structure,read-out,read by,mutations,cell line,organism,strain or isolate,result
CC1(C)CC(=O)C2=C(C1)Nc1c(O)cccc1NC2c1ccc(OCc2ccccc2)c(F)c1,EC50,luciferase / reporter gene / replicon,-,-,Hepatitis C virus,1b,2.5 µM
CNc1n[nH]c2cc(-n3c(=O)c4c(n5ncc(Cc6ccccc6)c35)CN(C(=O)c3ccc(Br)c(C(F)(F)F)c3)[C@@H](C)C4)ccc12,EC50,luminescence,-,HepG2.117,Hepatitis B virus,-,≤0.05 µM